These results are taken from patent US8791074.

The series has as its target wild type anthrax toxin protective antigen (WT-PA) (UniProt P13423).

For the substance tissue-type plasminogen activator (tPA), the “in vitro cleavage, Western blot with anti-PA” value is recorded as “PA was completely resistant to tPA”.
